The text below walks through data of patent US20230158060.

The target in data set [1] is purified MERS-CoV N protein, K9N4V7.

B1: purified MASP-2 (protein)
chain: TPLGPKWPEPVFGRLASPGFPGEYANDQERRWTLTAPPGYRLRLYFTHFDLELSHLCEYDFVKLSSGAKVLATLCGQESTDTERAPGKDTFYSLGSSLDITFRSDYSNEKPFTGFEAFYAAEDIDECQVAPGEAPTCDHHCHNHLGGFYCSCRAGYVLHRNKRTCSALCSGQVFTQRSGELSSPEYPRPYPKLSSCTYSISLEEGFSVILDFVESFDVETHPETLCPYDFLKIQTDREEHGPFCGKTLPHRIETKSNTVTITFVTDESGDHTGWKIHYTSTAQPCPYPMAPPNGHVSPVQAKYILKDSFSIFCETGYELLQGHLPLKSFTAVCQKDGSWDRPMPACSIVDCGPPDDLPSGRVEYITGPGVTTYKAVIQYSCEETFYTMKVNDGKYVCEADGFWTSSKGEKSLPVCEPVCGLSARTTGGRIYGGQKAKPGDFPWQVLILGGTTAAGALLYDNWVLTAAHAVYEQKHDASALDIRMGTLKRLSPHYTQAWSEAVFIHEGYTHDAGFDNDIALIKLNNKVVINSNITPICLPRKEAESFMRTDDIGTASGWGLTQRGFLARNLMYVDIPIVDHQKCTAAYEKPPYPRGSVTANMLCAGLESGGKDSCRGDSGGALVFLDSETERWFVGGIVSWGSMNCGEAGQYGVYTKVINYIPWIENIISDF
For the protein B1, the “C4 cleavage (immunoblot)” value in data set [1] is “MERS-CoV N also found potentiate the C4 cleavage”. For the same protein, the “SARS-CoV-potentiated C4 hydrolysis (immunoblot)” value in the data set with C1INH was “blocked SARS-CoV-potentiated C4 hydrolysis”.
